SMILES strings stand for the structures.

This data set concerns human cell-line A549 cells. The data set is described as follows: In vitro cytotoxicity, MTT assay. In kind it is cell-based. The note with it: selectivity index (IC50/MIC). As to the method: The safety profile of the active hybrids was also accessed by testing in vitro cytotoxicity against human cell-line A549 cells at 50 μg/mL concentration by (4,5-dimethylthiazol-2-yl)-2,5-diphenyltetrazolium bromide (MTT) assay. […]
completion of starting material and formation of polar spot. The reaction mixture was concentrated to dry to give 7a-7d, used directly in next step.
1.2. In-vitro Mtb MABA assay
Briefly, the inoculum was prepared from fresh LJ medium re -suspended in 7H9-S medium (7H9 broth, 0.1% casitone, 0.5% glycerol, supplemented oleic acid, albumin, dextrose, and catalase [OADC]), adjuste d to an OD590 1.0, and diluted 1:20; 100 µl was used as inoculum. Each drug stock solution was thawed and diluted in 7H9 -S at four-fold the final highest concentration tested. Serial two-fold dilutions of each drug were prepared directly in a sterile 96 -well microtiter plate using 100 µl 7H9 -S. A growth control containing no antibiotic and a sterile control were also prepared on each plate. Sterile water was added to all perimeter wells to avoid evaporation during the incubation. The plate was covered, seal ed in plastic bags and incubated at 37 °C in normal atmosphere. After 7 days incubation, 30 µl of Alamar blue solution was added to each well, and the plate was re -incubated overnight. A change in colour from blue (oxidised state) to pink (reduced) indicat ed the growth of bacteria, and the MIC was defined as the lowest concentration of drug that prevented this change in colour. […]
the concentration of […]. After 72 h of exposure, viability was assessed on the basis of cellular conversion of MTT into a formazan product using the Promega Cell Titer 96 non - radioactive cell proliferation assay.
1.4. DPPH radical scavenging activity
The hydrogen atom or electron donation ability of some compounds were measured from the bleaching of the purple colored methanol solution of […] (DPPH). The spectrophotometric assay uses the stable radical DPPH as a reagent. 1 mL of various concentrations of the test compounds (5, 10, 25, 50 and 100 μg/mL) in methanol was added to 4 mL of 0.004% (w/v) methanol solution of DPPH. The reaction mixture was incubated at 37 °C.
The scavenging activity on DPPH was determined by measuring the absorbance at 517 nm after 30 min. All tests were performed in triplicate and the mean values were entered. The percent of inhibition (I %) of free radical production from DPPH was calculated by the following equation % of scavenging = [(A control – A sample)/ […]]. Where, A control is the […]
On the technique in general: Tetrazolium assays rely on reduction of a dye to a coloured formazan, in cell work by metabolically active cells.
In the case of `CCOC(=O)c1cc2cc(N3CCN(S(=O)(=O)c4ccc([N+](=O)[O-])cc4[N+](=O)[O-])CC3)ccc2o1` [Compound 4a, ethyl 5-(4-(2,4-dintrobenzenesulfonyl)piperazin-1-yl)benzofuran-2-carboxylate], the “Human cell lines A549 SI index” value is given as >60.

For the molecule `CCOC(=O)c1cc2cc(N3CCN(C(=O)CNS(=O)(=O)c4ccc([N+](=O)[O-])cc4[N+](=O)[O-])CC3)ccc2o1` [Compound 4b, ethyl 5-(4-(2-(2,4-dinitrophenylsulfonamido)acetyl)piperazin-1-yl)benzofuran-2-carboxylate], the “Human cell lines A549 SI index” value is >15.

Regarding `CCOC(=O)c1cc2cc(N3CCN(C(=O)CCCNS(=O)(=O)c4ccc([N+](=O)[O-])cc4[N+](=O)[O-])CC3)ccc2o1` [Compound 4d, ethyl 5-(4-(4-(2,4-dinitrophenylsulfonamido)butanoyl)piperazin-1-yl) benzofuran-2-carboxylate], the “Human cell lines A549 SI index” value is >30.

In the case of `CCOC(=O)c1cc2cc(N3CCN(C(=O)C4CCN(S(=O)(=O)c5ccc([N+](=O)[O-])cc5[N+](=O)[O-])CC4)CC3)ccc2o1` [Compound 4e, ethyl 5-(4-(1-((2,4-dinitrophenyl)sulphonyl)piperidine-4-carbonyl)piperazin-1-yl)benzofuran-2-carboxylate], the “Human cell lines A549 SI index” value is given as >30.

On to `CCOC(=O)c1cc2cc(N3CCN(C(=O)C4CCCN(S(=O)(=O)c5ccc([N+](=O)[O-])cc5[N+](=O)[O-])C4)CC3)ccc2o1` (centres unmarked) [Compound 4f, ethyl 5-(4-(1-((2,4-dinitrophenyl)sulphonyl)piperidine-3-carbonyl)piperazin-1-yl)benzofuran-2-carboxylate], for which the “Human cell lines A549 SI index” value is >30.

As to `CCOC(=O)c1cc2cc(N3CCN(C(=O)C(C)(C)NS(=O)(=O)c4ccc([N+](=O)[O-])cc4[N+](=O)[O-])CC3)ccc2o1` [Compound 4j, ethyl 5-(4-(2-(2,4-dinitrophenylsulfonamido)-2-methylpropanoyl)piperazin-1-yl)benzofuran-2-carboxylate], the “Human cell lines A549 SI index” value is listed as >60.

As to `O=C(Nc1ccccc1)c1cc2cc(N3CCN(S(=O)(=O)c4ccc([N+](=O)[O-])cc4[N+](=O)[O-])CC3)ccc2o1` [Compound 4n, 5-(4-((2,4-dinitrophenyl)sulphonyl)piperazin-1-yl)-N-phenylbenzofuran-2-carboxamide], the “Human cell lines A549 SI index” value is >15.

As to `O=C(c1cc2cc(N3CCN(S(=O)(=O)c4ccc([N+](=O)[O-])cc4[N+](=O)[O-])CC3)ccc2o1)N1CCCCC1` [Compound 4o, (5-(4-((2,4-dinitrophenyl)sulphonyl)piperazin-1-yl)benzofuran-2-yl) (piperidin-1-yl)methanone], the “Human cell lines A549 SI index” value is listed as >30.

For the origin of these results see article PMC8330757, “Design and characterisation of piperazine-benzofuran integrated dinitrobenzenesulfonamide as Mycobacterium tuberculosis H37Rv strain inhibitors” (Journal of Enzyme Inhibition and Medicinal Chemistry, 2021).
